Measured values from several laboratories, pooled; numbers as filed in NIAID ChemDB.

All rows: growth or infection tests; species: HIV-1; method: luciferase; read-out: EC50

Conditions beyond the fields shown may differ between rows.

SMILES,mutations,strain or isolate,setting,cell line,value
O=C1CCCN1CCCN1CC(=O)N2CC(N(CCOc3ccccc3)S(=O)(=O)c3cccc(F)c3)C[C@H]2C1=O,,PLAI-JRFL PID2-27B,,TZM-bl,>30 µM
Nc1nc2c(c(F)cn2C[C@@H](CF)OCP(=O)(O)O)c(=O)[nH]1,,NL4-3,,PBMC,>100 µM
COC[C@@H](c1ccc(C(F)(F)F)cc1)N1CCN(C2(C)CCN(C(=O)c3c(C)ncnc3C)CC2)C[C@@H]1C,M518V F519I,,,PBMC,0.00017 µM
N#Cc1cn(C[C@@H](CF)OCP(=O)(O)O)c2nc(N)[nH]c(=O)c12,,BaL,,TZM-bl,>100 µM
C[C@H](N)C(=O)O.[Na+],,NL4-3,,,0.16 µM
CCc1cc(-c2ccc(C(F)(F)F)o2)n(-c2ccc3c(c2)nc(-c2cc(C(=O)N4CCCC4)ccc2O)n3CC2=CCC(=O)N=C2)n1,,NL4-3,,,0.062 µM
CCCCC/C=C\C/C=C\C/C=C\C/C=C\CCCC(=O)C(F)(F)F,,NL4-3-Luc VSV pseudotyped,,Jurkat cells,~5 µM
Cc1nc(C)c([C@H](OC(C)(C)C)C(=O)O)c(N2CCC(C3CCCCC3)CC2)c1-c1ccc(OCCc2ccc(F)cc2)cc1,,NL4-3,,MT-2,<0.1 µM
Cn1c2ccccc2c2c1cc(C#N)c(=O)n2-c1ccc([N+](=O)[O-])cc1,RT-D67N T69N M184V T215F K219Q,NRTI resistant,,HeLa,0.052 µM
Cc1nnc(C(C)C)n1C1C[C@H]2CC[C@@H](C1)N2CC[C@H](NC(=O)C1CCC(F)(F)CC1)c1ccccc1,,SF162,,ACH2 + TZM-bl,0.00261 µM
COc1ccc(Sc2nc(N)nc3c2ncn3C[C@@H](CF)OP(=O)(O)O)cc1,,BaL,,PBMC,>100 µM
Cc1nc(Nc2cc(F)ncc2F)c(-c2ccc(OCCc3ccc(F)cc3)cc2)c(N2CCC(C)(C)CC2)c1[C@H](OC(C)(C)C)C(=O)O,,NL4-3,,MT-2,0.021 µM
CC[C@H](C)[C@H](N)C(=O)O.[Na+],,IIIB,,,0.52 µM
Cc1ccc2cc(Cl)cc(-n3c(C)nnc3SCC(=O)Nc3ccc(S(N)(=O)=O)cc3Cl)c2n1,RT-Y188L,NL4-3,,HeLa + HeLa-JC53,0.1 µM
Cc1ccc(-c2nc(C)c([C@H](OC(C)(C)C)C(=O)O)c(-c3ccc4occc4c3)c2C)cc1C,,NL4-3,,C8166,17 nM
Cc1nc(N)c(-c2ccc(OCCc3ccc(F)cc3)c(F)c2F)c(N2CCC(C)(C)CC2)c1[C@H](OC(C)(C)C)C(=O)O,,NL4-3,,MT-2,0.002 µM
COc1cc2c(OC3O[C@H](C)[C@@H](O)[C@H](OC(=O)N(C)C)[C@H]3O)c3c(c(-c4ccc5c(c4)OCO5)c2cc1OC)C(=O)OC3,,NL4-3,pseudotyped,293T,>0.00374 µM
Cc1cn([C@H]2C[C@H](N=[N+]=[N-])[C@@H](CO)O2)c(=O)[nH]c1=O,RT-M41L E44D D67N T69D V118I L210W T215Y,NRTI resistant,,HeLa,6.38 µM
Cc1ccc(-n2c(C)nnc2SCC(=O)Nc2cccc(Cl)c2)cc1,RT-K103N Y181C,NL4-3,,HeLa + HeLa-JC53,>10 µM
Cc1cn([C@H]2C[C@H](N=[N+]=[N-])[C@@H](CO)O2)c(=O)[nH]c1=O,,VB51,,TZM-bl,0.03 µM
CC[C@H](C)[C@H]1NC(=O)[C@@H](NC(=O)OC(C)(C)C)[C@@H](C)OC(=O)[C@H](Cc2ccc(OC)cc2)N(C)C(=O)[C@@H]2CCCN2C(=O)[C@H](CC(C)C)NC(=O)C(C)(C)NC(=O)C[C@@H]1O,,NL4-3,,MT-2,11.96 µM
Cc1cc(C#N)cc(C)c1Oc1nc(Nc2ccc(C#N)cc2)nc(N)c1Br,,p8.9 B (N348I),,HEK293T,0.00275 µM
CC(C)[C@H](N)C(=O)O.[Na+],,NL4-3,,,0.17 µM
N#Cc1cn(C[C@H](CF)OCP(=O)(O)O)c2nc(N)[nH]c(=O)c12,,NL4-3,,TZM-bl,>100 µM
CCOC(=O)c1[nH]c2ccc(Cl)cc2c1C1(C)CC1,,,,293T,2.25 µM
Cc1nc(-c2nc3ccccn3c2C)c(C)c(-c2ccc(Cl)cc2)c1[C@H](OC(C)(C)C)C(=O)O,,NL4-3,,C8166,5.9 nM
Cc1cccc(C)c1OCC(=O)N[C@@H](Cc1ccccc1)[C@@H](O)C[C@H](Cc1ccccc1)NC(=O)[C@H](C(C)C)N1CCCNC1=O,PR-L10I M36I M46I I54V L63P A71V I84V L90M,NL4-3,,HEK 293 + 293T,0.42 µM
CC(=O)N1CCC(C(=O)N(CCCN2CCC(Cc3ccc(C(N)=O)cc3)CC2)c2ccc(C)c(Cl)c2)CC1,,X4 subtype D_2 recombinant,,U87 (CD4+ CXCR4+) + U87,>19 µM
Cc1ccc(NC(=O)CSc2nnc(C)n2-c2ccccc2Cl)c(Cl)c1,RT-K103N Y181C,NL4-3,,HeLa + HeLa-JC53,0.1 µM
COc1cc2c(OC(C)=O)c3c(c(-c4ccc5c(c4)OCO5)c2cc1OC)C(=O)OC3,,NL4-3,pseudotyped,293T,>3.4 µM
CC(C)=CCOc1c2occc2cc2ccc(=O)oc12,,NL4-3 Recombinant,,MT-2,<25 µM
COc1cc2c(OC3O[C@H](CO)[C@H](O)[C@@H]4OC(C)(C)O[C@@H]34)c3c(c(-c4ccc5c(c4)OCO5)c2cc1OC)C(=O)OC3,,NL4-3,pseudotyped,293T,>0.0527 µM
CO[C@H]1CCCC[C@@H](c2ccccc2)OC(=O)C(C)[C@@]2(O)OC([C@@H](C)[C@H](O)[C@H]2OC)[C@@H](C)/C=C/[C@H]1OC,,LAI,,TZM-bl,0.15 µM
Cc1nc(C(=O)N[C@@H](C)c2ccccc2)c(C)c(-c2ccc(Cl)cc2)c1[C@H](OC(C)(C)C)C(=O)O,,NL4-3,,C8166,22 nM
COc1cc2c(OC3O[C@@H]4COC(C)(C)O[C@@H]4[C@H](O)[C@H]3O)c3c(c(-c4ccc5c(c4)OCO5)c2cc1OC)C(=O)OC3,,NL4-3,pseudotyped,293T,>0.0527 µM
CC[C@H](C)[C@H]1NC(=O)[C@@H](NC(=O)[C@@H](C)N(C)C(=O)[C@@H]2CCCN2C(=O)C(C)=O)[C@@H](C)OC(=O)[C@H](Cc2ccc(OC)cc2)N(C)C(=O)[C@@H]2CCCN2C(=O)[C@H](CC(C)C)NC(=O)[C@@H](C)C(=O)[C@H](C(C)C)OC(=O)C[C@@H]1O,,NL4-3,,MT-2,0.3 µM
CC(C)C[C@H](N)C(=O)O.[Na+],,IIIB,,,0.76 µM
CCCCC/C=C\C/C=C\C/C=C\C/C=C\CCCC(=O)NCCO,,NL4-3-Luc VSV pseudotyped,,Jurkat cells,>10 µM
Cc1ccc(NC(=O)CSc2nnc(C)n2-c2cccc3cccnc23)c(Cl)c1,RT-Y188L,NL4-3,,HeLa + HeLa-JC53,5.7 µM
Cc1nc(C)c([C@H](OC(C)(C)C)C(=O)O)c(N2CC3CCCC3C2)c1-c1ccc(C(=O)NCc2ccc(F)cc2)cc1,,NL4-3,,MT-2,<0.1 µM
Cc1nnc(C(=O)NC(C)(C)c2nc(C(=O)NCc3ccc(F)cc3)c(O)c(=O)n2C)o1,,NL4-3,,ACH2 + TZM-bl,0.00018 µM
Cc1ccc2ccccc2c1-n1c(C)nnc1SCC(=O)Nc1ccccc1Br,RT-Y188L,NL4-3,,HeLa + HeLa-JC53,0.21 µM
Cc1c(C(=O)NN2CCCCC2)nn(-c2ccc(Cl)cc2Cl)c1-c1ccc(Cl)cc1,,NL4-3-Luc VSV pseudotyped,,Jurkat cells,>5 µM
CC[C@H](C)[C@H]1NC(=O)[C@@H](NC(=O)[C@@H](CC(C)C)N(C)S(=O)(=O)c2ccc(C)cc2)[C@@H](C)OC(=O)[C@H](Cc2ccc(OC)cc2)N(C)C(=O)[C@@H]2CCCN2C(=O)[C@H](CC(C)C)NC(=O)[C@H](C(C)C)OC(=O)C[C@@H]1O,,NL4-3,,PBMC,0.021 µM
O=c1ccc2cc3ccoc3cc2o1,,NL4-3 Recombinant VSV-pseudotyped,,MT-2,>50 µM
CCc1cc(-c2ccc(C)o2)n(-c2ccc3c(c2)nc(-c2ccccc2O)n3CC2=CCC(=O)N=C2)n1,,NL4-3,,,0.26 µM
Cc1nnc(C(C)C)n1C1C[C@H]2CC[C@@H](C1)N2CC[C@H](NC(=O)C1CCC(F)(F)CC1)c1ccccc1,,SF162,,TZM-bl,0.00299 µM
COc1cc2c(OCC(C)(C)O)c3c(c(-c4ccc5c(c4)OCO5)c2cc1OC)C(=O)OC3,,NL4-3,pseudotyped,293T,0.015 µM
Cc1cc(-c2cnc(CO)c([C@H](OC(C)(C)C)C(=O)O)c2N2CCC(C)(C)CC2)ncc1OCCc1ccc(F)cc1,,NL4-3,,MT-2,0.009 µM
Nc1nc2c(ccn2C[C@H](CF)OCP(=O)(O)O)c(=O)[nH]1,,BaL,,TZM-bl,>100 µM
Cc1nnc(SCC(=O)Nc2ccccc2Br)n1-c1cccc2ccccc12,RT-Y188L,NL4-3,,HeLa + HeLa-JC53,0.72 µM
CCCCCOC(=O)C[C@H](NP(=O)(CO[C@@H](CF)Cn1ccc2c(=O)[nH]c(N)nc21)Oc1ccccc1)C(=O)OCCCCC,,NL4-3,,TZM-bl,9.28 µM
CC[C@H](C)[C@H]1NC(=O)[C@@H](NC(=O)[C@@H](C)N(C)C(=O)OCc2ccccc2)[C@@H](C)OC(=O)[C@H](Cc2ccc(OC)cc2)N(C)C(=O)[C@@H]2CCCN2C(=O)[C@H](CC(C)C)NC(=O)[C@@H](C)C(=O)[C@H](C(C)C)OC(=O)C[C@@H]1O,,NL4-3,,PBMC,7.9 µM

A second listing of 8 rows from above:

{"SMILES": "Cc1ccc(-n2c(C)nnc2SCC(=O)Nc2cccc(Cl)c2)cc1", "mutations": "RT-K103N Y181C", "strain or isolate": "NL4-3", "cell line": "HeLa + HeLa-JC53", "value": ">10 µM"}
{"SMILES": "CC[C@H](C)[C@H]1NC(=O)[C@@H](NC(=O)[C@@H](CC(C)C)N(C)S(=O)(=O)c2ccc(C)cc2)[C@@H](C)OC(=O)[C@H](Cc2ccc(OC)cc2)N(C)C(=O)[C@@H]2CCCN2C(=O)[C@H](CC(C)C)NC(=O)[C@H](C(C)C)OC(=O)C[C@@H]1O", "strain or isolate": "NL4-3", "cell line": "PBMC", "value": "0.021 µM"}
{"SMILES": "Cc1nnc(C(C)C)n1C1C[C@H]2CC[C@@H](C1)N2CC[C@H](NC(=O)C1CCC(F)(F)CC1)c1ccccc1", "strain or isolate": "SF162", "cell line": "TZM-bl", "value": "0.00299 µM"}
{"SMILES": "CCCCC/C=C\\C/C=C\\C/C=C\\C/C=C\\CCCC(=O)C(F)(F)F", "strain or isolate": "NL4-3-Luc VSV pseudotyped", "cell line": "Jurkat cells", "value": "~5 µM"}
{"SMILES": "COc1cc2c(OC3O[C@H](C)[C@@H](O)[C@H](OC(=O)N(C)C)[C@H]3O)c3c(c(-c4ccc5c(c4)OCO5)c2cc1OC)C(=O)OC3", "strain or isolate": "NL4-3", "setting": "pseudotyped", "cell line": "293T", "value": ">0.00374 µM"}
{"SMILES": "N#Cc1cn(C[C@H](CF)OCP(=O)(O)O)c2nc(N)[nH]c(=O)c12", "strain or isolate": "NL4-3", "cell line": "TZM-bl", "value": ">100 µM"}
{"SMILES": "N#Cc1cn(C[C@@H](CF)OCP(=O)(O)O)c2nc(N)[nH]c(=O)c12", "strain or isolate": "BaL", "cell line": "TZM-bl", "value": ">100 µM"}
{"SMILES": "CCCCCOC(=O)C[C@H](NP(=O)(CO[C@@H](CF)Cn1ccc2c(=O)[nH]c(N)nc21)Oc1ccccc1)C(=O)OCCCCC", "strain or isolate": "NL4-3", "cell line": "TZM-bl", "value": "9.28 µM"}

Blank or dashed fields: not listed here. ECn is the concentration giving n% inhibition of infection, replication or growth.